A mixed list of measured activities; the numbers were collected in NIAID ChemDB.

All rows: whole-cell or culture tests; agent: Human cytomegalovirus

Conditions beyond the fields shown may differ between rows. ECn is the concentration giving n% inhibition of infection, replication or growth. An empty or dashed field is not shown.

smiles | endpoint | cell line | read by | strain or isolate | mutations | result
COc1ccc(/C=N/NC(=O)c2ccccc2S(=O)(=O)NC(C)C)cc1 | EC50 | HEL | plaque count | AD169 |  | >100 µM
CCCCCOc1nc(N)nc2c1ncn2/C=C1/C[C@@H]1CO | EC50 | HFF | plaque count |  |  | 1.4 µM
Nc1nc2c(ncn2COC(CO)CO)c(=O)[nH]1 | EC50 |  | ELISA | TOWNE |  | 10 µM
Nc1nc2c(ncn2COC(CO)CO)c(=O)[nH]1 | EC50 | HFF | virus yield | 2916 (bdcrb maribavir-resistant) |  | 1.5 µM
Nc1ccn(C[C@@H](CO)OCP(=O)(O)O)c(=O)n1 | EC50 | HEL | plaque count | DAVIS |  | 1.84 µM
CCCSc1nc(N)nc2c1ncn2/C=C1/C[C@@H]1CO | EC50 | HFF | plaque count |  |  | 3 µM
O=C(NCc1ccc(Cl)cc1)c1cn2c3c(cc(CN4CCOCC4)cc3c1=O)OC(c1cccnc1)C2 | EC50 | HFF | plaque count | C8708/17-1-1 |  | 3.9 µM
C/C(=N/NC(N)=S)c1ccc(NC(=O)CN2C(=O)c3ccccc3S2(=O)=O)cc1 | EC50 | HEL | plaque count | DAVIS |  | >100 µM
OC[C@H]1O[C@@H](n2c(Cl)nc3cc(Cl)c(Cl)cc32)[C@H](O)[C@@H]1O | EC50 | HFF | plaque count | Isolate B11 mutation D344E |  | 16 µM
CNc1ncnc2c1ncn2[C@@H]1S[C@H](CO)C[C@@H]1N=[N+]=[N-] | EC50 |  |  |  |  | <100 µg/mL
CCCOc1nc(N)nc2c1ncn2/C=C1/C[C@@H]1CO | EC50 | HFF | plaque count |  |  | 2 µM
C[C@@H]1O[C@@H](n2c(Cl)nc3cc(Cl)c(Cl)cc32)[C@H](O)[C@@H]1O | EC90 | HFF | virus yield | AD169 |  | 0.82 µM
CCCCCCCCCCCCCCCCCCOC[C@H](COP(=O)(O)CO[C@H](CO)Cn1ccc(N)nc1=O)OCc1ccccc1 | EC50 | HFF | plaque count | GDGrP53 |  | 0.02 µM
O=C(NCc1ccc(Cl)cc1)c1c[nH]c2ccc(C#CCO)cc2c1=O | EC50 |  | plaque count | NEW |  | 1.2 µM
Nc1ncnc2c1ncn2C=C1CC1CO | EC50 | KB | virus yield | AD169 |  | <1 µM
Nc1nc(NC2CC2)c2ncn(/C=C3/C[C@@H]3CO)c2n1 | EC50 | HFF | plaque count |  |  | 1.9 µM
[O-][n+]1onc2ncnc(N3CC[N+]4(CC3)CC[N+]3(CCN(c5ncnc6no[n+]([O-])c56)CC3)CC4)c21 | EC50 | HELF | plaque count | Clinical isolate | Ganciclovir-resistant | 0.15 µM
OC[C@H]1O[C@@H](n2c(Br)nc3cc(Cl)c(Cl)cc32)[C@H](O)[C@@H]1O | EC50 |  | plaque count | 48041 (GCV-susceptible) |  | 0.64 µM
Nc1nc2c(ncn2[C@H]2C=C[C@@H](CO)[C@H](O)C2)c(=O)[nH]1 | EC50 |  |  | U 9070 |  | 0.4 µg/mL
C[C@H]1O[C@@H](n2c(Br)nc3cc(Cl)c(Cl)cc32)[C@H](O)[C@@H]1O | EC50 | HFF | virus yield | Isolate C4 mutations D344E + Q204R |  | <3 µM
CCCCCCCC/C=C\CCCCCCCOCCCOP(=O)(O)CO[C@H](CO)Cn1ccc(N)nc1=O | EC50 | HFF | plaque count | Toledo |  | 0.005 µM
C=CCNc1nc(N)nc2c1ncn2/C=C1/C[C@@H]1CO | EC50 | HFF | plaque count |  |  | 2.8 µM
CC(=O)c1ccc(NC(=O)CN2C(=O)c3ccccc3S2(=O)=O)cc1 | EC50 | HEL | plaque count | AD169 |  | >100 µM
CCCCCCCCCCCCCCCCOCCCOP(=O)(O)CO[C@H](CO)Cn1ccc(N)nc1=O | EC50 | MRC-5 | plaque count | Toledo |  | 0.025 µM
Cn1cc(C(=O)NCc2ccc(Cl)cc2)c(=O)c2cc(CN3CCOCC3)ccc21 | EC50 | HFF | plaque count | TOWNE |  | 2.1 µM
Nc1nc2c(ncn2COC(CO)CO)c(=O)[nH]1 | EC90 |  | virus yield | TOWNE |  | 0.4 µM
[N-]=[N+]=N[C@H]1C[C@H](CO)S[C@@H]1n1cnc2c(N)ncnc21 | EC50 |  |  |  |  | <100 µg/mL
CCCCCCCCCCCCCCCCCCOCCOP1(=O)CO[C@@H](Cn2ccc(N)nc2=O)CO1 | EC50 | MRC-5 | plaque count | GDGP53 (drug-resistant mutant) |  | 0.05 µM
COc1cccc(N2CCN(C3=Nc4c(F)cccc4[C@H](CC(=O)O)N3c3cc(C(F)(F)F)ccc3OC)CC2)c1 | EC50 |  | plaque count | Clinical isolate 15 |  | 0.0029 µM
C/C(=N/Nc1nc(-c2ccccc2)cs1)c1ccc(NC(=O)CN2C(=O)c3ccccc3S2(=O)=O)cc1 | EC50 | HEL | plaque count | DAVIS |  | 20 µM
CCCCCCCCCCCCCCCCCCOCCOP(=O)(O)CO[C@H](CO)Cn1ccc(N)nc1=O | EC50 | MRC-5 | plaque count | 759D100 drug-resistant mutant |  | 0.0055 µM
CC(C)NS(=O)(=O)c1ccccc1C(=O)N/N=C/c1ccc(F)cc1 | EC50 | HEL | plaque count | AD169 |  | >100 µM
[N-]=[N+]=N[C@H]1C[C@H](CO)S[C@@H]1n1cnc2c(Cl)ncnc21 | EC50 |  |  |  |  | <100 µg/mL
CCCCCCCCCCCCOCCCOP(=O)(O)CO[C@H](CO)Cn1ccc(N)nc1=O | EC50 | HFF | plaque count | AD169 |  | 0.01 µM
Nc1nc2c(ncn2COC(CO)CO)c(=O)[nH]1 | EC50 |  | plaque count | VR5406 (ganciclovir-resistant) |  | 20 µM
CNc1ncnc2c1ncn2[C@H]1S[C@H](CO)C[C@@H]1N=[N+]=[N-] | EC50 |  |  |  |  | <100 µg/mL
COc1ccc(Cn2cc(C(N)=S)c3c(N)ncnc32)cc1 | EC50 | MRC-5 | ELISA | TOWNE |  | 0.4 µM
O[C@@H]1[C@H](O)CO[C@H]1n1c(Cl)nc2cc(Cl)c(Cl)cc21 | EC50 | HFF | plaque count | D10 (BDCRB- and maribavir-resistant) |  | 4.6 µM

3 of the rows above, restated:

smiles	endpoint	cell line	read by	strain or isolate	mutations	result
C[C@H]1O[C@@H](n2c(Br)nc3cc(Cl)c(Cl)cc32)[C@H](O)[C@@H]1O	EC50	HFF	virus yield	Isolate C4 mutations D344E + Q204R		<3 µM
C/C(=N/NC(N)=S)c1ccc(NC(=O)CN2C(=O)c3ccccc3S2(=O)=O)cc1	EC50	HEL	plaque count	DAVIS		>100 µM
Nc1nc2c(ncn2[C@H]2C=C[C@@H](CO)[C@H](O)C2)c(=O)[nH]1	EC50			U 9070		0.4 µg/mL